Tests used:
[1] = Drug concentrations in human ecto-cervical tissue explants (LC-MS/MS); settings: for AUC3h-15d / Cmax: Human ecto-cervical explants, 3 h exposure
[2] = Drug concentrations in Rhesus macaque ecto-cervical tissue explants (LC-MS/MS); format: in vitro ADME, Rhesus macaque (Macaca mulatta); settings: Rh. macaque ecto-cervical explants, 3 h exposure
[3] = Drug concentrations in human colorectal tissue explants (LC-MS/MS); format: in vitro ADME; settings: for AUC3h-15d / Cmax: Human colorectal explants, 3 h exposure
[4] = Drug concentrations in Rhesus macaque colorectal tissue explants (LC-MS/MS); format: in vitro ADME, Rhesus macaque (Macaca mulatta); settings: Rh. macaque colorectal explants, 3 h exposure
[5] = Drug concentrations in Rhesus macaque vaginal tissue explants (LC-MS/MS); format: in vitro ADME, Rhesus macaque (Macaca mulatta); settings: for AUC3h–15d / Cmax: Rh. macaque vaginal explants, 3 h exposure
[6] = Comb. gel, High [ ]: TFV 70 µM + MVC 3.8 µM
[7] = Comb. gel, Low [ ]: TFV 7 µM + MVC 0.38 µM
[8] = Single gel, High [ ]: TFV 70 µM or MVC 3.8 µM
[9] = Single gel, Low [ ]: TFV 7 µM or MVC 0.38 µM

**Q.** What does the source list for Maraviroc [MVC]?
**A.** AUC3h-15d [1, 6]: 5.55 ng·days/mg; Cmax [1, 6]: 2.66 ng/mg; AUC3h-15d [1, 7]: 1.22 ng·days/mg; Cmax [1, 7]: 0.59 ng/mg; AUC3h-15d [1, 8]: 4.95 ng·days/mg; Cmax [1, 8]: 2.61 ng/mg; AUC3h-15d [1, 9]: 1.23 ng·days/mg; Cmax [1, 9]: 0.56 ng/mg; AUC3h-15d fold increase, high versus low concentration gels ([1]; human ecto-cervical explants): 4.3 fold; Cmax fold increase ([1]; human ecto-cervical explants versus macaque tissue): 2.2 fold; AUC3h–15d [2, 6]: 9.03 ng·days/mg; Cmax [2, 6]: 1.19 ng/mg; AUC3h–15d [2, 7]: 4.93 ng·days/mg; Cmax [2, 7]: 0.64 ng/mg; AUC3h–15d [2, 8]: 7.17 ng·days/mg; Cmax [2, 8]: 0.94 ng/mg; AUC3h–15d [2, 9]: 0.95 ng·days/mg; Cmax [2, 9]: 0.122 ng/mg; AUC3h-15d [3, 6]: 3.84 ng·days/mg; Cmax [3, 6]: 1.86 ng/mg; AUC3h-15d [3, 7]: 0.62 ng·days/mg; Cmax [3, 7]: 0.29 ng/mg; AUC3h-15d [3, 8]: 6.96 ng·days/mg; Cmax [3, 8]: 3.15 ng/mg; AUC3h-15d [3, 9]: 1.38 ng·days/mg; Cmax [3, 9]: 0.22 ng/mg; AUC3h-15d fold increase, high versus low concentration gels ([3]; human colorectal tissue): 5.4 fold; AUC3h–15d [4, 6]: 54.31 ng·days/mg; Cmax [4, 6]: 35.40 ng/mg; AUC3h–15d [4, 7]: 4.72 ng·days/mg; Cmax [4, 7]: 2.79 ng/mg; AUC3h–15d [4, 8]: 37.51 ng·days/mg; Cmax [4, 8]: 24.34 ng/mg; AUC3h–15d [4, 9]: 1.78 ng·days/mg; Cmax [4, 9]: 0.95 ng/mg; AUC3h–15d [5, 6]: 7.22 ng·days/mg; Cmax [5, 6]: 0.95 ng/mg; AUC3h–15d [5, 7]: 3.22 ng·days/mg; Cmax [5, 7]: 0.43 ng/mg; AUC3h–15d [5, 8]: 10.88 ng·days/mg; Cmax [5, 8]: 1.44 ng/mg; AUC3h–15d [5, 9]: 1.44 ng·days/mg; Cmax [5, 9]: 0.19 ng/mg; AUC3h-15d fold increase, high versus low concentration gels ([5]; macaque vaginal explants): 3.8 fold
